Pooled drug test results. Numbers come from NIAID ChemDB, via PubChem.

Common to all: growth or infection tests; organism: Candida glabrata; read-out: MIC

Blank or dashed fields: not listed here. Lines come from different laboratories, so protocols vary.

| SMILES | strain or isolate | method | conditions | result |
|---|---|---|---|---|
| C[C@@H]1C(=O)N(CCc2ccccc2)C(=O)[C@@H]1C | CCC 115-2000 | broth dilution / turbidity | - | 62.5 µg/mL |
| O=C(N/N=C/c1ccc(Cl)cc1)c1ccc(CNc2nc3ccccc3[nH]2)cc1 | ATCC 36583 | broth dilution | - | 50 µg/mL |
| C/C(=N\NC([S-])=Nc1ccccc1Cl)c1ccccn1.CCC[CH2][Sn+3] | ATCC 90030 | broth dilution | - | 14.53 µM |
| O=C1c2c(O)ccc(O)c2C(=O)c2c(NCCNCCO)ccc(NCCNCCO)c21 | ATCC 90030 | - | - | 48.6 µM |
| CCN(CC)c1ccc(/C=N/NC(=O)c2ccc(CNc3nc4ccccc4[nH]3)cc2)cc1 | ATCC 36583 | broth dilution | - | 50 µg/mL |
| CCOC(=O)C1C(=O)C=C(c2ccc(Cl)cc2)CC1c1ccc(C2CC(c3ccc(Cl)cc3)=CC(=O)C2C(=O)OCC)cc1 | Clinical isolate | - | - | 6.25 µg/mL |
| O=C(N/N=C/c1ccc(F)cc1)c1ccc(CNc2nc3ccccc3[nH]2)cc1 | ATC 36583 | broth dilution | - | 50 µg/mL |
| S=C=NCCCCCCCN=C=S | 250 multidrug-resistant | visual reading | - | <1 µg/mL |
| COc1ccc(C2CC(c3ccc4ccccc4c3)=Cc3[nH][nH]c(=O)c32)cc1 | - | - | - | 50 µg/mL |
| COc1cccc(OCC(=O)c2ccccc2)c1 | ATCC 90030 | broth dilution | 24 h | >125 µg/mL |
| C[C@H]1[C@H](O)[C@@H](C)/C=C/C=C/C=C/C=C/C=C/C=C/C=C/[C@H](O[C@@H]2O[C@H](C)[C@@H](O)[C@H](N)[C@@H]2O)C[C@@H]2O[C@](O)(C[C@@H](O)C[C@@H](O)CC[C@H](O)[C@@H](O)C[C@@H](O)CC(=O)O[C@H]1C)C[C@H](O)[C@H]2C(=O)O | CCC 115-2000 | broth dilution / turbidity | - | 0.49 µg/mL |
| COC(=O)[C@H]1[C@@H]2C[C@@H](O[C@@H]3O[C@H](C)[C@@H](O)[C@H](N)[C@@H]3O)/C=C/C=C/C=C/C=C/C=C/C=C/C=C/[C@H](C)[C@@H](O)[C@H](C)[C@H](C)OC(=O)C[C@H](O)C[C@H](O)[C@@H](O)CC[C@H](O)C[C@H](O)C[C@](O)(C[C@@H]1O)O2 | 40 isolates | broth dilution | pH 5 | 0.25 µg/mL |
| O/N=C\c1cccs1 | - | - | - | 3930 µM |
| CCC(C)CC(C)CCCCCCCCC(=O)N[C@H]1C[C@@H](O)[C@H](NCCN)NC(=O)[C@@H]2[C@@H](O)CCN2C(=O)[C@H]([C@H](O)CCN)NC(=O)[C@H]([C@H](O)[C@@H](O)c2ccc(O)cc2)NC(=O)[C@@H]2C[C@@H](O)CN2C(=O)[C@H]([C@@H](C)O)NC1=O | C110 | broth dilution | - | 0.06 µg/mL |
| COC(=O)[C@H]1[C@@H]2C[C@@H](O[C@@H]3O[C@H](C)[C@@H](O)[C@H](N)[C@@H]3O)/C=C/C=C/C=C/C=C/C=C/C=C/C=C/[C@H](C)[C@@H](O)[C@H](C)[C@H](C)OC(=O)C[C@H](O)C[C@H](O)[C@@H](O)CC[C@H](O)C[C@H](O)C[C@](O)(C[C@@H]1O)O2 | ATCC 90030 | - | - | 0.24 µM |
| CCCC[C@@H](C)/C=C(C)/C=C(\C)C(=O)N/C(=C/[C@@](C)(O)/C=C/C=C/C=C/C(=O)NC1=C(O)CCC1=O)C(=O)[C@@H]1CO1 | 2 | broth dilution | - | 25 µM |
| O=c1[nH][nH]c2c1C(c1ccc(Br)cc1)CC(c1ccc3ccccc3c1)=C2 | - | - | - | 12.5 µg/mL |
| CN(Cc1ccc(S(=O)(=O)N2CCOCC2)cc1)CC(O)(Cn1cncn1)c1ccc(F)cc1F | 468 | resazurin | - | 0.021 µg/mL |
| CCC[CH2][Sn+3].O=[N+]([O-])c1ccccc1N=C([S-])N/N=C(\c1ccccc1)c1ccccn1 | ATCC 90030 | broth dilution | - | 3.21 µM |
| CC(=O)N1CCN(c2ccc(OC[C@H]3CO[C@](Cn4ccnc4)(c4ccc(Cl)cc4Cl)O3)cc2)CC1 | 40 isolates | broth dilution | pH 4 | >16 µg/mL |
| C/C(=N\NC([S-])=Nc1ccccc1[N+](=O)[O-])c1ccccn1.CCC[CH2][Sn+3] | ATCC 90030 | broth dilution | - | 7.13 µM |
| COC(=O)c1ccc(C[C@H](C(=O)OC)[C@@H](O)C(=O)OC)cc1 | DSM 11226 | - | - | >4 µg/mL |
| O/N=C(/COc1ccc(F)cc1)c1ccccc1 | ATCC 90030 | broth dilution | 48 h | 31.25 µg/mL |
| CCCCCCCCCCCC[n+]1cccc2ccccc21 | 20/I | broth dilution | 24 h | 0.00781 µg/mL |
| C[C@H]1[C@H](O)[C@@H](C)/C=C/C=C/C=C/C=C/C=C/C=C/C=C/[C@H](O[C@@H]2O[C@H](C)[C@@H](O)[C@H](N)[C@@H]2O)C[C@@H]2O[C@](O)(C[C@@H](O)C[C@@H](O)CC[C@H](O)[C@@H](O)C[C@@H](O)CC(=O)O[C@H]1C)C[C@H](O)[C@H]2C(=O)O | ATCC 9030 | broth dilution | - | 0.25 µg/mL |
| O=C(COc1ccccc1)c1ccccc1 | ATCC 90030 | broth dilution | 48 h | >125 µg/mL |
| CCC(C)n1ncn(-c2ccc(N3CCN(c4ccc(OC[C@H]5CO[C@](Cn6cncn6)(c6ccc(Cl)cc6Cl)O5)cc4)CC3)cc2)c1=O | 40 isolates | broth dilution | pH 4 | 1 µg/mL |
| O/N=C(/COc1cccc(Cl)c1)c1ccccc1 | ATCC 90030 | broth dilution | 24 h | 15.63 µg/mL |
| CN(C)c1ccc(/C=N/NC(=O)c2ccc(CNc3nc4ccccc4[nH]3)cc2)cc1 | ATCC 36583 | broth dilution | - | 100 µg/mL |
| COc1cc(OCC(=O)c2ccccc2)cc(OC)c1OC | ATCC 90030 | broth dilution | 24 h | >125 µg/mL |
| CC[C@@H]([C@H](C)O)n1ncn(-c2ccc(N3CCN(c4ccc(OC[C@@H]5CO[C@@](Cn6cncn6)(c6ccc(F)cc6F)C5)cc4)CC3)cc2)c1=O | 8658 | broth dilution | - | 0.25 µg/mL |
| CC(C)c1ccc(S(=O)(=O)Nc2ccc(CN(C)CC(O)(Cn3cncn3)c3ccc(F)cc3F)cc2)cc1 | 468 | resazurin | - | 1.9 µg/mL |
| CCCCCCCC/C=C\CCCCCCCC(=O)N[C@H](C(=O)N1C[C@H](C)C[C@H]1C(=O)N[C@H](C(=O)N[C@@H](CCO)C(=O)N[C@@H](C)CO)C(C)C)[C@@H](C)O | ATCC 90030 | broth dilution / visual reading | - | >32 µg/mL |
| O=C(N/N=C/c1ccc(O)cc1)c1ccc(CNc2nc3ccccc3[nH]2)cc1 | ATCC 36583 | broth dilution | - | 100 µg/mL |
| O=P(O)(O)OP(=O)(O)OP(=O)(O)O | MC370 | broth dilution | - | 390 µg/mL |
| O=[N+]([O-])c1ccc(/C=N\O)cc1 | - | - | - | 3010 µM |
| CCOC(=O)C1C(=O)C=C(c2ccc(C)cc2)CC1c1ccc(C2CC(c3ccc(C)cc3)=CC(=O)C2C(=O)OCC)cc1 | Clinical isolate | - | - | 100 µg/mL |
| CC(C)NS(=O)(=O)c1ccc(CN(C)CC(O)(Cn2cncn2)c2ccc(F)cc2F)cc1 | 468 | resazurin | - | 0.014 µg/mL |
| N#Cc1ccc(/C=N/NC(=O)c2ccc(CNc3nc4ccccc4[nH]3)cc2)cc1 | ATCC 36583 | broth dilution | - | 25 µg/mL |
| O=C(COc1cccc(Cl)c1)c1ccccc1 | ATCC 90030 | broth dilution | 24 h | >125 µg/mL |
| O/N=C\c1ccccc1O | - | - | - | 1800 µM |
| O=c1c(N2CCOCC2)c(N2CCN(S(=O)(=O)Cc3ccccc3)CC2)cnn1-c1ccccc1 | C454 | broth dilution | - | 3.13 µg/mL |
| C[C@@H](N1CCc2nc(-c3ccsc3)sc2C1)[C@](O)(C[n+]1cnc[nH]1)c1ccc(F)cc1F | 537 | - | - | 0.5 µg/mL |
| CCOC(=O)C1C(=O)C=C(c2ccccc2)CC1c1ccc(C2CC(c3ccccc3)=CC(=O)C2C(=O)OCC)cc1 | Clinical isolate | - | - | 200 µg/mL |
| CCC(C)CC(C)CCCCCCCCC(=O)N[C@H]1C[C@@H](O)[C@H](NCCN)NC(=O)[C@@H]2[C@@H](O)CCN2C(=O)[C@H]([C@H](O)CCN)NC(=O)[C@H]([C@H](O)[C@@H](O)c2ccc(O)cc2)NC(=O)[C@@H]2C[C@@H](O)CN2C(=O)[C@H]([C@@H](C)O)NC1=O | 8661 | broth dilution | - | 1 µg/mL |
| CCCCCCCCCCCCCCCC(=O)NC(CCCCN)C(=O)NC(CCCCN)C(N)=O | 4682 | broth dilution | - | 8 µg/mL |
| CCOc1ccc(/C=N/NC(=O)c2ccc(CNc3nc4ccccc4[nH]3)cc2)cc1 | ATCC 36583 | broth dilution | - | 100 µg/mL |
| O/N=C\c1ccccc1 | - | - | - | 4130 µM |
| C[C@H]1[C@H](O)[C@@H](C)/C=C/C=C/C=C/C=C/C=C/C=C/C=C/[C@H](O[C@@H]2O[C@H](C)[C@@H](O)[C@H](N)[C@@H]2O)C[C@@H]2O[C@](O)(C[C@@H](O)C[C@@H](O)CC[C@H](O)[C@@H](O)C[C@@H](O)CC(=O)O[C@H]1C)C[C@H](O)[C@H]2C(=O)O | 537 | broth dilution | - | 0.5 µg/mL |
| CC1CC(=O)N(c2ccc(Br)cc2)C1=O | CCC 115-2000 | broth dilution / turbidity | - | 125 µg/mL |
| CCCNS(=O)(=O)c1ccc(CN(C)CC(O)(Cn2cncn2)c2ccc(F)cc2F)cc1 | 468 | resazurin | - | 1.57 µg/mL |
| CCCCCCCC/C=C\CCCCCCCC(=O)NCCCN | ATCC 90030 | broth dilution | - | 64 µg/mL |
| O/N=C\c1ccc(F)cc1 | - | - | - | 7200 µM |
| COc1cc(NC(C)CCCNC(=O)CCC(NC(=O)[C@H](N)CCCCN)C(=O)O)c2nc(C(C)(C)C)ccc2c1 | - | broth dilution | - | >20 µg/mL |
| O=c1[nH][nH]c2c1C(c1ccc(Cl)cc1)CC(c1ccc3ccccc3c1)=C2 | - | - | - | 25 µg/mL |